Reference: PubChem BioAssay AID504761 (Drosophila RNAi Screening Center, 2011)
The deposit covers about 22,000 reagents; shown is a random part of those with a known target gene and a result. Of all reagents, 116 (0.52%) got an active call. 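Calls depend on retest data that are not deposited; infection was ranked per plate without normalising between plates; the unit of the infection score is not given.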 The raw values are shown without normalisation. Reagents against one gene are numbered here. Further read-outs or replicates are left out here. Not given: the amount of reagent, the time to read-out.

Aim: 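Genome-wide fly cell screen for genes dengue virus requires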 (primary screen)
Cells: D.Mel-2 cells from Drosophila
Knock-down reagent: long dsRNA against Drosophila genes
Challenge: infection with dengue virus type 2; dose and infection time not stated
Read-out: 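Cells stained for dengue envelope protein and imaged; percent of infected cells per well on duplicate plates, ranked by infection, with stained nuclei counted for cell number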
Direction: infection score: higher = more virus-infected cells; cell count: higher = more cells in the well
Call rule: 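Low infection ranks in the two replicates (chance level up to 0.065) followed by a retest with a 1.5-fold or larger significant decrease, p below 0.05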
Calls: active = confirmed: knock-down lowers infection; inactive = not picked or not confirmed

{"gene":"CG3706 (GeneID 53540)","reagent":1,"infection score, replicate 1":4.79,"cell count, replicate 1":1503,"Outcome":"inactive"}
{"gene":"mael (GeneID 40489)","reagent":1,"infection score, replicate 1":9.37,"cell count, replicate 1":2850,"Outcome":"inactive"}
{"gene":"CR33315 (GeneID 3771801)","reagent":1,"infection score, replicate 1":1.68,"cell count, replicate 1":6805,"Outcome":"inactive"}
{"gene":"CR33315 (GeneID 3771801)","reagent":2,"infection score, replicate 1":18,"cell count, replicate 1":5280,"Outcome":"inactive"}
{"gene":"Ggamma30A (GeneID 45234)","reagent":1,"infection score, replicate 1":0.42,"cell count, replicate 1":6167,"Outcome":"inactive"}
{"gene":"Ggamma30A (GeneID 45234)","reagent":2,"infection score, replicate 1":3.22,"cell count, replicate 1":6275,"Outcome":"inactive"}
{"gene":"Spase25 (GeneID 32095)","reagent":1,"infection score, replicate 1":1.88,"cell count, replicate 1":7109,"Outcome":"inactive"}
{"gene":"CG11125 (GeneID 35669)","reagent":1,"infection score, replicate 1":9.76,"cell count, replicate 1":5668,"Outcome":"inactive"}
{"gene":"ari-1 (GeneID 32796)","reagent":1,"infection score, replicate 1":1.94,"cell count, replicate 1":7051,"Outcome":"inactive"}
{"gene":"ari-1 (GeneID 32796)","reagent":2,"infection score, replicate 1":6.05,"cell count, replicate 1":5698,"Outcome":"inactive"}
{"gene":"ari-1 (GeneID 32796)","reagent":3,"infection score, replicate 1":4.78,"cell count, replicate 1":6864,"Outcome":"inactive"}
{"gene":"Hr38 (GeneID 35332)","reagent":1,"infection score, replicate 1":1.31,"cell count, replicate 1":6970,"Outcome":"inactive"}
{"gene":"Hr38 (GeneID 35332)","reagent":2,"infection score, replicate 1":4.58,"cell count, replicate 1":6857,"Outcome":"inactive"}
{"gene":"CG13039 (GeneID 39805)","reagent":1,"infection score, replicate 1":13.8,"cell count, replicate 1":5191,"Outcome":"inactive"}
{"gene":"shop (GeneID 32878)","reagent":1,"infection score, replicate 1":1.84,"cell count, replicate 1":6680,"Outcome":"inactive"}
{"gene":"shop (GeneID 32878)","reagent":2,"infection score, replicate 1":4.52,"cell count, replicate 1":6482,"Outcome":"inactive"}
{"gene":"CG30098 (GeneID 246456)","reagent":1,"infection score, replicate 1":7.51,"cell count, replicate 1":6502,"Outcome":"inactive"}
{"gene":"CG30098 (GeneID 246456)","reagent":2,"infection score, replicate 1":1.63,"cell count, replicate 1":6489,"Outcome":"inactive"}
{"gene":"Ostgamma (GeneID 34137)","reagent":1,"infection score, replicate 1":3.68,"cell count, replicate 1":6689,"Outcome":"inactive"}
{"gene":"CG14985 (GeneID 38470)","reagent":1,"infection score, replicate 1":2,"cell count, replicate 1":6288,"Outcome":"inactive"}
{"gene":"CG32652 (retired record) (GeneID 318141)","reagent":1,"infection score, replicate 1":35.2,"cell count, replicate 1":6024,"Outcome":"inactive"}
{"gene":"CG32652 (retired record) (GeneID 318141)","reagent":2,"infection score, replicate 1":3.71,"cell count, replicate 1":6114,"Outcome":"inactive"}
{"gene":"CG32652 (retired record) (GeneID 318141)","reagent":3,"infection score, replicate 1":25.8,"cell count, replicate 1":6078,"Outcome":"inactive"}

An excerpt from above, reduced to “cell count, replicate 1”:
Ggamma30A (GeneID 45234) #2 = 6275
Spase25 (GeneID 32095) = 7109
CG11125 (GeneID 35669) = 5668
ari-1 (GeneID 32796) #1 = 7051
